The target of the assay is Candida albicans Pma1 (Candida albicans, UniProt P28877). The experiment in a line: ATP hydrolysis inhibition, C. albicans Pma1. Particulars: read-out: ATP hydrolysis IC50 CaPma1 (Table B); Table B in S1 File. It is filed as biochemical. The method, then: Candida albicans microsomes were prepared from 100 mL overnight culture in YPD (10 g/L yeast extract (BD, Sparks, MD), 20 g/L Bacto peptone (BD, Sparks, MD), 20 g/L D-(+)-glucose), transferred to 1 L YPD and grown at RT, 150 rpm, for 7 h. Cells were harvested and washed in deionized water followed by centrifugation at 3360 x g. The cells were glucose-activated by the addition of 10% (w/v) D-(+)-glucose for 10 minutes while shaking. […]
ATPase activity was determined by measuring the amount of liberated phosphate from ATP hydrolysis. […] The amount of liberated phosphate was determined colorimetrically after addition of STOP solution (mixture of L-ascorbic acid, ammonium heptamolybdate tetrahydrate, and HCl to give final concentrations of 65 mM, 2.2 mM, and 189 mM, respectively) with 5 minutes incubation at room temperature (RT) followed by addition of arsenite solution (mixture of NaAsO2, sodium citrate dihydrate, and acetic acid to give final concentrations of 3.1 mM, 28 mM, and 141 mM, respectively). Absorption was measured at 860 nm after additional 30 minutes incubation at RT.

The chains behind the UniProt entries cited, without tags or fusion partners.
UniProt P28877, whole entry: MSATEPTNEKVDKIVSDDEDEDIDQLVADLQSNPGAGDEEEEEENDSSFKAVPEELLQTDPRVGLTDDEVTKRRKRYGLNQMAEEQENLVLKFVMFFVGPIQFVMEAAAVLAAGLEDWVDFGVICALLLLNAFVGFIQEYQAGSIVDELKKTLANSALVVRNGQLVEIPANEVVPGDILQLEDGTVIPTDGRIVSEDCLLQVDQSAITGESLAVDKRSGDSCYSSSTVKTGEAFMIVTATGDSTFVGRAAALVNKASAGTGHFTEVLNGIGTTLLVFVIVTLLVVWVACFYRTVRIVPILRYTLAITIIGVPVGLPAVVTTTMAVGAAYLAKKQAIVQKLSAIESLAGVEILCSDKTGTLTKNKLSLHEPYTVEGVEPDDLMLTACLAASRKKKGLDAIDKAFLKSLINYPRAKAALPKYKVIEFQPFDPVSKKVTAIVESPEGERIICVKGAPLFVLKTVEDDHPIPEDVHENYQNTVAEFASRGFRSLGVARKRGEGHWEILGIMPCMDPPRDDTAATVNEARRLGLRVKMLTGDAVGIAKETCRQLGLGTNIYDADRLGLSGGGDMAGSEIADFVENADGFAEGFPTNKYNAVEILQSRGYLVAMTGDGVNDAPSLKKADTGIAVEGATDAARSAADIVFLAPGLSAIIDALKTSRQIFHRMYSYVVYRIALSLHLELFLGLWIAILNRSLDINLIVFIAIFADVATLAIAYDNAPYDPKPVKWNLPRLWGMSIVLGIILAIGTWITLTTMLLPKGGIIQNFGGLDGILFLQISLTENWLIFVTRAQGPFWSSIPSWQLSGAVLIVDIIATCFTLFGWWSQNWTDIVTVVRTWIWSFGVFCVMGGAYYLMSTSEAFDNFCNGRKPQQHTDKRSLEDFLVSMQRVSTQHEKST

Here are results for one compound from paper PMC5749684, “Tetrahydrocarbazoles are a novel class of potent P-type ATPase inhibitors with antifungal activity” (PLoS ONE, 2018).

On to `CC1Cc2c([nH]c3cc(Cl)c(F)cc23)C2(N1)C(=O)Nc1ccc(Cl)cc12` (stereo not shown), for which the 50% inhibitory concentration (IC50) (as a rule, the midpoint of a concentration-inhibition curve) turned out to be 150 nM.
